Reference: paper PMC4517146, “Enzymatic Enantioselective Decarboxylative Protonation of Heteroaryl Malonates” (Chemistry (Weinheim an Der Bergstrasse, Germany), 2015)

Columns and labels:
Test in all cases: purified protein
Conditions in all cases: assay conditions in Supporting Information
[1] = tested on: O=C(O)C(O)(C(=O)O)c1cccs1
[2] = tested on: O=C(O)C(O)(C(=O)O)c1ccco1
[3] = tested on: O=C(O)C(O)(C(=O)O)c1ccc2sccc2c1
[4] = tested on: O=C(O)C(O)(C(=O)O)c1cc2ccccc2o1
[5] = tested on: O=C(O)C(O)(C(=O)O)c1cccnc1
[6] = tested on: COc1ccc(C(O)(C(=O)O)C(=O)O)o1

Substance | Km [1] [mM] | kcat [1] [s⁻¹] | kcat/Km [1] [M⁻¹ s⁻¹] | Km [2] [mM] | kcat [2] [s⁻¹] | kcat/Km [2] [M⁻¹ s⁻¹] | Km [3] [mM] | kcat [3] [s⁻¹] | kcat/Km [3] [M⁻¹ s⁻¹] | Km [4] [mM] | kcat [4] [s⁻¹] | kcat/Km [4] [M⁻¹ s⁻¹] | Km [5] [mM] | kcat [5] [s⁻¹] | kcat/Km [5] [M⁻¹ s⁻¹] | Km [6] [mM] | kcat [6] [s⁻¹] | kcat/Km [6] [M⁻¹ s⁻¹]
aryl/alkenyl malonate decarboxylase (AMDase) (Bordetella bronchiseptica; M159V) | 3.5 ± 1.3 | 79.3 | 22400 | 7.2 ± 1.8 | 149 | 20700 | 0.82 ± 0.11 | 54.8 | 66600 | 3.6 ± 1.1 | 182 | 50600 | 7.3 ± 2.8 | 86.4 | 11800 | – | – | –
aryl/alkenyl malonate decarboxylase (AMDase) (Bordetella bronchiseptica; P14V/P15G) | 2.2 ± 0.5 | 34 | 15200 | – | – | – | – | – | – | 7.4 ± 1.8 | 115 | 15600 | 13.0 ± 5.7 | 42.2 | 3200 | 7.2 ± 1.1 | 28.8 | 4100
